The supplement of paper PMC9931576
Human monoclonal antibodies against the spike receptor-binding domain (heavy:light variable regions). IC50 against pseudoviruses bearing the spike of naturally observed variants; lower = stronger; >10 µg/ml means not reached at the top dose. No active / inactive call. The stated detection limit is 0.0005 µg/ml; values near or below 0.001 µg/ml lie at the floor of the assay.

B1: BD55-5242 (protein)
chain 1: QVQLVQSGAEVKKPGASVKVSCKAFGYTFNSNYIHWVRQAPGQGLEWMGVIDPSGGATSYAQKFQGRVTMTRDTSTNTVYMELSSLRSEDTAVYYCARDLGDDVSRGYSGYDFLDLYGMDVWGQGTTVTVS
chain 2: not shown
B2: BD55-5248 (protein)
chain 1: QVQLVESGGGVVQPGRSLRLSCAASGFTFSSYDMYWVRQAPGKGLEWVAVISYDGSSNFYADSVKGRFTISRDNSRNTLSLQMNSLRAEDTAVYFCARERREQLTPVFDHWGQGTLVTVSS
chain 2: DIQMTQSPSSLSASVGDRVTITCRASQSISSYLNWYQQRPGKAPKLLIYSASTLESGVPSRFSGSGSGTDFTLTINSLQPEDFATYYCQQSYSTLALTFGGGTKVEIK
B3: BD55-5264 (protein)
chain 1: QVQLVQSGAEVKKPGASVKVSCKVSGYTLTKFSIHWVRQGHGKGLEWMGGFDIGEGGTIYAQKFQGRVTMTEDTSTDTSYMELSSLRSEDTAMYYCATDGEYSSGWAGVKLWGQGTLVTVSS
chain 2: DIQMTQSPSTLSASVGDRVTITCRASQSISSWLAWYQQKPGKAPKLLIYKASSLESGVPSRFSGSGSGTEFTLTISSLQPDDFATYYCQQCDSYPWTFGQGTKVEIK
B4: BD55-5265 (protein)
chain 1: EVQLVQSGAEVKKPGESLKISCKGAGYIFTHYWIAWVRQMPGKGLEWMGIVHPGDSDTRYSPSFQAQVTISADKSINTAYLQWSSLKASDTAIYFCARHGVHSGYSGYDRWDGHYYGMDVWGQGTTVTVSA
chain 2: SYVLTQPPSVSVAPGKTARITCGGNNIGSKSVHWYQQKPGQAPVLVVYDGSERPSGIPERFSGSNSENTATLTISRVEAGDEADYYCQVWNDNSDSLVFGTGTEVTVL
B5: BD55-5276 (protein)
chain 1: EVHLEESGGGLVHPGRSLRLSCAASGFTLDEYAMHWVRRAPGKGLEWVSGISWNSGARGYADSVKGRFTISRDNAKNSLYLQMNSLRAEDTAFYYCAKDNSHGSGTAWDWLDSWGQGTLVTVSS
chain 2: NFMLTQPHSVSESPGKTVTISCTRSSGTITNNYVQWYRQRPGSSPTTVIFEDNQRPSGVPDRFSGSIDSSSNSASLTISGLKTEDEADYYCQSHDSSNWVFGGGTKLTVL
B6: BD55-5293 (protein)
chain 1: EVQLVQSGAEVKKPGESLKISCKTSGYSFISNWIGWVRQMPGKGLEWMGIIYPGDSDTRYSPSFQGQVTISVDKSISTAYLQWTSLKASDTAMYFCTRRGDYGEFGGFDGDWGQGTLVTVTS
chain 2: DIQMTQSSSSLSASVGDRVTITCRASQSTGRYLNWYQQKAGKAPKLVIYAVSSLQSGVPSRFSGSGSGTEFTLTINSLQPEDFATYYCQQTYSIPFTFGPGTKVDLK
B7: BD55-5296 (protein)
chain 1: EVQLVEAGGGLVQPGRSLRLSCTASGFTFGDHAINWVRQAPGKGLEWVGFIRTKPYGGTADYAASVKGKFIISRDDSKSIAYLQMNGLKTEDTAVYYCAREEDRGYSGYDFLDYFYGMDVWGQGTTVIVSS
chain 2: QSVLTQPPSASGTPGQRVTISCSGSNSNIGKEYVYWYQQLPGTAPKLLIYRNNQRPSGVPDRFSASKSGTSASLAISGLRSEDEADYYCAAWDDSLSTFVFATGTRVTVL

What follows are binders tested against SARS-CoV-2 Omicron BA.1 spike pseudovirus (assay: pseudovirus neutralization IC50; higher = weaker neutralization).
Experimental: (§1)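 Single-round VSV luciferase pseudovirus mixed with antibody dilutions for 1 h and put on Huh-7 cells for about a day; IC50 from the dose curve.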

Binder	pseudovirus neutralization IC50 [µg/mL]
B1	0.0253
B2	> 10
B3	> 10
B4	> 10
B5	> 10
B6	0.875
B7	0.725

The binders below were run against SARS-CoV-2 Omicron BA.2 spike pseudovirus in the same assay as above.
Experimental: as §1

Binder	pseudovirus neutralization IC50 [µg/mL]
B1	> 10
B2	> 10
B3	> 10
B4	> 10
B5	> 10
B6	1.52
B7	> 10

What follows are binders tested against SARS-CoV-2 Omicron BA.2.75 spike pseudovirus in the same assay as above.
Experimental: as §1

Binder	pseudovirus neutralization IC50 [µg/mL]
B1	> 10
B2	> 10
B3	> 10
B4	> 10
B5	> 10
B6	5.25
B7	> 10

What follows are binders tested against SARS-CoV-2 Omicron BA.5 spike pseudovirus in the same assay as above.
Experimental: as §1

Binder	pseudovirus neutralization IC50 [µg/mL]
B1	> 10
B2	> 10
B3	> 10
B4	> 10
B5	> 10
B6	> 10
B7	> 10

Each binder was assayed against SARS-CoV-2 Omicron BQ.1.1 spike pseudovirus in the same assay as above.
Experimental: as §1

Binder	pseudovirus neutralization IC50 [µg/mL]
B1	> 10
B2	> 10
B3	> 10
B4	> 10
B5	> 10
B6	> 10
B7	> 10

What follows are binders tested against SARS-CoV-2 Omicron XBB spike pseudovirus in the same assay as above.
Experimental: as §1

Binder	pseudovirus neutralization IC50 [µg/mL]
B1	> 10
B2	> 10
B3	> 10
B4	> 10
B5	> 10
B6	> 10
B7	> 10

The binders below were run against SARS-CoV-2 early D614G spike pseudovirus in the same assay as above.
Experimental: as §1

Binder	pseudovirus neutralization IC50 [µg/mL]
B1	0.0154
B2	0.859
B3	1.69
B4	0.216
B5	0.125
B6	0.711
B7	0.0811
